Taken from: PubChem BioAssay AID624099 (ICCB-Longwood, 2012)
The deposit covers about 21,000 reagents; below is a part drawn at random. In the full data, 497 (2.4%) are marked active. 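Higher z means weaker E2 silencing; only reporter increases were scored, and knock-downs that hurt cell survival may mask genuine repressor factors.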

Screen: 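Knock-downs relieving repression by E2 of an HPV18 LCR luciferase reporter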 (primary screen)
System: human C33A cervical carcinoma cells (HPV-negative) stably expressing BPV1 E2 and an HPV18 LCR luciferase reporter
Knock-down reagent: siRNA pool against human genes, 40 nM
Duration: 72 h
Detection: 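Per-well luciferase luminescence, z-scored on each plate against the plate mean and SD with control wells left out, then averaged across three replicate plates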
Direction: mean z-score and z-score: higher = stronger reporter signal, weaker E2 silencing
Rule for the call: 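Hit if mean z-score reaches 2 and two or more of three replicate z-scores also reach 2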

no.	gene knocked down	PubChem SID	mean z-score	z-score, replicate A	z-score, replicate B	z-score, replicate C	call
1	TMEM213	SID134327814	0.16	0.08	0.2	0.19	inactive
2	CCNT1	SID56478581	-0.15	-0.29	0.1	-0.26	inactive
3	ARHGEF25	SID134310277	1.44	1.24	1.37	1.72	inactive
4	SMUG1	SID134317088	0.43	0.22	0.37	0.7	inactive
5	SP7	SID134319473	-2.94	-2.8	-3.15	-2.86	inactive
6	LOC401287 (retired record)	SID134327660	0.76	1.03	0.71	0.55	inactive
7	ALDH1B1	SID134313137	-1.37	-1.48	-0.99	-1.63	inactive
8	SLCO1A2	SID134312487	-0.6	-0.61	-0.54	-0.64	inactive
9	TMPRSS11D	SID134311321	0.97	0.72	0.8	1.4	inactive
10	KIF27P2	SID134328037	1.66	1.95	1.98	1.06	inactive
11	POLRMT	SID134316309	0.34	0.39	0.56	0.09	inactive
12	RIPPLY1	SID134326171	0.41	0.39	0.42	0.41	inactive
13	EFL1P1	SID134328621	-0.97	-0.74	-1.12	-1.05	inactive
14	MME	SID134310749	1.17	1.04	1.11	1.34	inactive
15	ARHGAP45	SID134325874	-0.86	-1.03	-0.73	-0.81	inactive
16	ADPGK	SID134311981	0.45	0.68	0.3	0.38	inactive
17	CBX4	SID134313233	-0.36	-0.44	-0.41	-0.24	inactive
18	FAIM2	SID134321280	0.7	0.69	0.34	1.07	inactive
19	RABGAP1	SID134317055	1.39	1.57	1.15	1.44	inactive
20	C1GALT1C1	SID134322619	-1.5	-1.71	-1.87	-0.91	inactive
21	KLHL32	SID134319212	2.24	2.2	2.05	2.46	active
22	IER5L	SID134329385	-0.47	-0.39	-0.33	-0.67	inactive
23	ZNF785	SID134322196	-0.21	0	-0.26	-0.38	inactive
24	USP54	SID134320827	1.14	1.28	0.94	1.22	inactive
25	DKFZp547B139 (retired record)	SID134329633	-0.11	-0.29	0.1	-0.14	inactive
26	SHANK2-AS3	SID134320293	0.02	0.05	0	-0.01	inactive
27	CEACAM7	SID134323466	-0.47	-0.5	-0.44	-0.46	inactive
28	NDE1	SID134324297	-1.59	-1.47	-1.61	-1.69	inactive
29	RBFA	SID134318607	-0.29	-0.13	0.08	-0.82	inactive
30	MTCL2	SID134319716	1.34	1.14	1.52	1.36	inactive
31	MTCL2	SID134326852	0.34	0.23	0.42	0.38	inactive
32	LOC391692 (retired record)	SID134327422	0.13	-0.75	0.93	0.22	inactive
33	CERS4	SID134318523	0.07	0.43	-0.32	0.09	inactive
34	PMM2	SID134315459	0.1	0.1	-0.01	0.2	inactive
35	ZSWIM6	SID134326074	-0.81	-0.63	-0.81	-0.99	inactive
36	CFAP157	SID134326488	-0.61	-0.82	-0.88	-0.13	inactive
37	DTYMK	SID56479096	-1.16	-0.87	-1.36	-1.25	inactive
38	AIRE	SID134315358	-0.31	-0.09	-0.61	-0.24	inactive
39	OBP2A	SID134314679	-0.52	-0.82	-0.66	-0.07	inactive
40	TBCEL	SID134319624	-0.09	-0.19	-0.16	0.07	inactive
41	LOC387705 (retired record)	SID134328155	0.06	-0.23	0.13	0.26	inactive
42	ZMYM1	SID134312189	0.29	0.68	0.19	0.02	inactive
43	NUDT16L1	SID134318959	1.51	1.66	1.23	1.65	inactive
44	TFAP2B	SID134321643	-0.67	-0.34	-1.18	-0.48	inactive
45	RSL24D1P11	SID134325731	-0.33	-0.23	-0.48	-0.29	inactive
46	FOXF1	SID134314357	-1.14	-1.54	-1	-0.87	inactive
47	SMPD3	SID134311953	-1.53	-1.49	-1.34	-1.75	inactive
48	YEATS2	SID134321099	0.62	0.36	0.89	0.62	inactive
49	JSRP1	SID134324895	-0.79	-0.65	-1	-0.72	inactive
50	DPH3	SID134329432	-0.62	-0.74	-0.45	-0.68	inactive
51	CRYGD	SID134316614	0.53	0.28	0.64	0.66	inactive
52	H3C14	SID134322908	-0.57	-0.57	-0.57	-0.58	inactive
53	EIF5A	SID134319765	-0.79	-1.07	-0.57	-0.74	inactive
54	KAT6B	SID134323344	0.05	0.45	-0.09	-0.2	inactive
55	LOC83459 (retired record)	SID134312205	1.84	2	1.54	1.98	inactive
56	HSFY1	SID134319125	-0.31	-0.04	-0.51	-0.38	inactive
57	WDR20	SID134324908	-0.17	-0.1	0.26	-0.65	inactive
58	RNF175	SID134312291	0.19	0.06	0.24	0.26	inactive
59	GRPEL2	SID134320193	-0.23	-0.08	-0.46	-0.16	inactive
60	SPAG1	SID134310389	-0.48	-0.5	-0.66	-0.27	inactive
61	FGF7	SID134315983	0.16	0.05	0.24	0.2	inactive
62	SIK2	SID56478866	-0.78	-0.43	-0.95	-0.96	inactive
63	SET	SID134323365	-0.53	-0.53	-0.45	-0.61	inactive
64	EFHD1	SID134315166	-0.26	-0.6	-0.12	-0.06	inactive
65	LINC02138	SID134328675	0.19	0	0.33	0.25	inactive
66	NPIPB13	SID134328651	-0.23	-0.01	-0.19	-0.48	inactive
67	CHGA	SID134315593	-0.61	-0.81	-0.55	-0.48	inactive
68	CCDC178	SID134329487	1.24	1.12	1.16	1.44	inactive
69	ZMPSTE24	SID134311523	-0.48	-0.02	-0.63	-0.79	inactive
70	PLD1	SID134314162	0.27	0.31	-0.2	0.69	inactive
71	CEP97	SID134322019	-0.22	-0.36	-0.1	-0.2	inactive
72	GRM7	SID134311062	-0.6	-0.48	-0.42	-0.88	inactive
73	NAB2	SID134323819	0.23	0.24	0.26	0.2	inactive

5 entries from above, sorted by “mean z-score”, descending.
gene knocked down	PubChem SID	mean z-score	z-score, replicate A	z-score, replicate B	z-score, replicate C	call
MME	SID134310749	1.17	1.04	1.11	1.34	inactive
FAIM2	SID134321280	0.7	0.69	0.34	1.07	inactive
ADPGK	SID134311981	0.45	0.68	0.3	0.38	inactive
CBX4	SID134313233	-0.36	-0.44	-0.41	-0.24	inactive
ARHGAP45	SID134325874	-0.86	-1.03	-0.73	-0.81	inactive
